Experimental data as given in the supplement of paper PMC9931576.
Human monoclonal antibodies against the spike receptor-binding domain (heavy:light variable regions). IC50 against pseudoviruses bearing the spike of naturally observed variants; lower = stronger; >10 µg/ml means not reached at the top dose. No active / inactive call. The stated detection limit is 0.0005 µg/ml; values near or below 0.001 µg/ml lie at the floor of the assay.

B1: BD55-6399 (protein)
chain 1: QVQLVQSGAEVKKPGASVKVSCKTSGYGFVTYSLHWVRQAPGQGLEWMGRFSPDDGSTSYAQKFQGRVTMSADTSTTTVYLSLKSLRSEDTAFYFCARDPGGFYPNRFDVWGQGTLVTVSS
chain 2: DIQMTQSPSSLSASVGDRVTITCRASQTISHYLNWYQQKPGGAPKLLIYAASTLQGGVPSRFSGSGSGTDFTLTIHSLQPEDFATYYCQQSYTTPPLTFGGGTRVEI
B2: BD55-1239 (protein)
chain 1: QVQLVQSGAEVKKPGSSVKVSCKASGDIYSTYASSWVRQAPGQGLEWMGRIIPVSGTVNYADNFQGRVTITADKSTSTAYMELRSLTSEDTAVYYCARDVARGGYSGYDFFDYYYGMDVWGQGTTVTVSS
chain 2: QSALTQPASVSGSPGQSITISCTGTSSDVGGYNYVSWYQQHPDKAPKLLIYDVNNRPSGVSTRFSGSKSGNTASLTISRLQTDDEADYSCSSYTSSNTWVFGGGTKLTVL
B3: BD55-6403 (protein)
chain 1: EVQLVESGGGLVQPGGSLRLSCAASGFTFRQYWMHWVRHVPGKGLVWVSRIDSDGSGAFYAGSVRGRFTVSRDNSKGTLYLQMNSLRAEDTAVYYCAREEGYYYHYMDVWGKGTTVTVSS
chain 2: DIQMTQSPSSLSASVGDRVTITCRASQSIGDYINWYQYKPGKAPKLLIYAATNLHSGVSSRFVGTGSGTDFTLTISGLQPDDFATYYCQQSYTTPPPTFGGGTKVEI
B4: BD55-6404 (protein)
chain 1: QVHLVQSGAEVKKPGASVKISCKTSGYPFTSHYMHWVRQAPGQGPEWMGFINPSTLTTEYAQKIQGRATLTRDMSTSTVYMELSSLRSEDTAIYYCARESSGVNVAENHFDLWGQGTLVTVSS
chain 2: EIVLTQSPGILSLSPGERATLSCRASQHVSSNYLAWYQQKSGQAPRLLIYGASSRATGIPDRFSGSGSGTDFTLTISRLEPEDVAVYFCQQYYTSPRTFGQGTKVEIK
B5: BD55-6405 (protein)
chain 1: QLQLQESGPGLVKPSETLSLACTVSGGAISSSVDYWGWIRQPPGKGLEWIGSLYNGGNTYYNPSLKSRLTISVDMSKDQLSLKLSSVTAADTAVYYCARLAYDGSLDDHWGQGVLVTVSS
chain 2: QSVLTQPPSASGTPGQRVTISCSGRSSNIGSNYVYWYHQLPGTAPKLLIYRNNLRPSGVPDRFSGSKSGASASLAISGLRSEDEADYYCASWDDSLSGVVFGGGTKLTVL
B6: BD55-6410 (protein)
chain 1: QVQLQESGPGLVKPSQTLSLTCTVSGGSVTRGGYYWSWVRQHPGKGLEWIGNIYYTGNTNYKPSLKSRISISVDTSKNQFSLILSSVTAADTAIYYCARGSYYAAGTYYNDYWGQGTLVTVSS
chain 2: SSELTQDPAVSVGLGQTVRITCQGDSLRTYFPSWYQQKPGQAPLLVIYGKNNRPSGIPDRFSGSSSGDTASLTITRTQAEDEADYYCNSRDRSTYHLEVFGGGTKLTVL
B7: BD55-1241 (protein)
chain 1: EVQLVESGGGLVQPGGSLRLSCVASGFTFSRYNMNWVRQAPGKGPEWVSYISTLSTTIDYADSVEGRFTISRDNAKNSLYLQMNSLRDEDTAVYYCARKCGNSCYVGPYYYYGMDVWGQGTTVTVSS
chain 2: DIVMTQSPLSLPVTPGEPASISCRSSQSLLHGNGYNYLDWYLQKPGQSPQVLIYLGSNRASGVPDRFSGSGSGTDFTLKISRVEAEDVGIYYCMQALQTPLTFGQGTRLEIK
B8: BD55-6413 (protein)
chain 1: QVQLVQSGSELKKPGASMKVSCKASGYTFTTYALKWVRQAPGQGLEWMGWINTNTGNPTYAQGFTGRFVFSLDTSVSTAYLQISSLRAEDTAVYYCARVFCSYDKCYDVDYWGQGTLITVSS
chain 2: QSVLTQPPSASGTPGQRVTISCSGSTSNIGNNFVYWYQQLPGTAPKLLIFRNTHRPSGVPDRFSGSKSGTSASLAISGLRSEDEADYYCASWDDSLSGRVFGGGTKLAVL
B9: BD55-6423 (protein)
chain 1: QVQLVESGGGVVQPGGSLRLSCAASGFSFSDFAMHWVRQAPGKGLEWVAVISYHGTNEYYVDSVKGRFTISRDNSRKTLYLEMNSLRVEDTAVYYCATGGSFGDFSTYHYYAMDDWGQGTTVTVSS
chain 2: QSLLTQPPSASGTPGQRVIISCSGSSSNIGSNYVYWYQQLPGTAPKLLIYRNAQRPSGVPDRFSGSRSGTSASLAISGLRSEDEADYYCAAWDDSLSACVFGGGTKLTVL
B10: BD55-6438 (protein)
chain 1: QVQLRESGPGLVKPSETLSLTCTVSGDSMSSYYWSWIRQSAGKGLEWIGRIHPSGSTNHKSSLSGRVTMSVDTSKNQFSLLLRSVTAADTAVYYCARGGCSSTSCFGFYFYGMDVWGQGTTVTVSS
chain 2: DIQMTQSPSSLSASVGDRVTITCQASQDISNFLNWYQQKPGKAPKLLISAASNLETGVPSRFSGSGSGRDFTLTISSLLPEDFGTYYCQQYADLPLFGGGTKV
B11: BD55-6455 (protein)
chain 1: QVQLVESGGGVVQPGRSLRLSCAASGFSFTAFGIHWVRQAPGKGLEWVALVSEDGFNAYYADSLKGRFTISRDNSMHTVFLQMTSLRAEDTALYYCVRDSEFNNWKGSGAFGVWGQGTMVTVSS
chain 2: QSVLTQPPSVSGAPGQRVTVSCTGSSSNIGAGYDVHWYQQLPGTAPKLLIYGNDNRPSGVPDRFSGSKSGTSASLAITGLQAEDEADYYCQSYDSSVTGSSYVVFGGGTKLTVL
B12: BD55-6457 (protein)
chain 1: EVQLVESGGGLVQPGGSLRLSCAASGFTFNTYAMHWVRQAPGKGLEFVSSITSNGGGTFYANSVKGRFTISRDNSKNTLYLQMGSLRAEDMAVYYCAREGLDYFLYFDYWGQGALVTVSS
chain 2: DIQMTQSPSSLSASVGDRVTITCRASQSINIYLNWYQQKPGKAPKLLIYGASSLQNGVPSRFSGSGSGTEFTLTISSLQPEDFATYYCQQSYTTPTWTFGPGTKVEIK

Each binder was assayed against SARS-CoV-2 Omicron BA.1 spike pseudovirus (assay: pseudovirus neutralization IC50; higher = weaker neutralization).
Method: (§1)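 Single-round VSV luciferase pseudovirus mixed with antibody dilutions for 1 h and put on Huh-7 cells for about a day; IC50 from the dose curve.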
For B1, the “pseudovirus neutralization IC50” value was > 10 µg/mL.
B2 was tested, and the “pseudovirus neutralization IC50” value was 0.146 µg/mL.
For B3, the “pseudovirus neutralization IC50” value was > 10 µg/mL.
For B4, the “pseudovirus neutralization IC50” value was > 10 µg/mL.
With B5 the “pseudovirus neutralization IC50” value was > 10 µg/mL.
In the case of B6, the “pseudovirus neutralization IC50” value is reported as > 10 µg/mL.
B7 was tested, and the “pseudovirus neutralization IC50” value was > 10 µg/mL.
In the case of B8, the “pseudovirus neutralization IC50” value is reported as > 10 µg/mL.
In the case of B9, the “pseudovirus neutralization IC50” value is reported as > 10 µg/mL.
With B10 the “pseudovirus neutralization IC50” value was > 10 µg/mL.
For B11, the “pseudovirus neutralization IC50” value was > 10 µg/mL.
With B12 the “pseudovirus neutralization IC50” value was > 10 µg/mL.

Each binder was assayed against SARS-CoV-2 Omicron BA.2 spike pseudovirus in the same assay as above.
Method: as §1
With B1 the “pseudovirus neutralization IC50” value was > 10 µg/mL.
With B2 the “pseudovirus neutralization IC50” value was > 10 µg/mL.
For B3, the “pseudovirus neutralization IC50” value was > 10 µg/mL.
For B4, the “pseudovirus neutralization IC50” value was > 10 µg/mL.
B5 was tested, and the “pseudovirus neutralization IC50” value was > 10 µg/mL.
B6 was tested, and the “pseudovirus neutralization IC50” value was > 10 µg/mL.
In the case of B7, the “pseudovirus neutralization IC50” value is reported as > 10 µg/mL.
B8 was tested, and the “pseudovirus neutralization IC50” value was > 10 µg/mL.
For B9, the “pseudovirus neutralization IC50” value was > 10 µg/mL.
In the case of B10, the “pseudovirus neutralization IC50” value is reported as > 10 µg/mL.
In the case of B11, the “pseudovirus neutralization IC50” value is reported as > 10 µg/mL.
In the case of B12, the “pseudovirus neutralization IC50” value is reported as > 10 µg/mL.

What follows are binders tested against SARS-CoV-2 Omicron BA.2.75 spike pseudovirus in the same assay as above.
Method: as §1
B1 was tested, and the “pseudovirus neutralization IC50” value was > 10 µg/mL.
For B2, the “pseudovirus neutralization IC50” value was > 10 µg/mL.
For B3, the “pseudovirus neutralization IC50” value was > 10 µg/mL.
With B4 the “pseudovirus neutralization IC50” value was > 10 µg/mL.
In the case of B5, the “pseudovirus neutralization IC50” value is reported as > 10 µg/mL.
B6 was tested, and the “pseudovirus neutralization IC50” value was > 10 µg/mL.
For B7, the “pseudovirus neutralization IC50” value was > 10 µg/mL.
B8 was tested, and the “pseudovirus neutralization IC50” value was > 10 µg/mL.
For B9, the “pseudovirus neutralization IC50” value was > 10 µg/mL.
In the case of B10, the “pseudovirus neutralization IC50” value is reported as > 10 µg/mL.
In the case of B11, the “pseudovirus neutralization IC50” value is reported as > 10 µg/mL.
B12 was tested, and the “pseudovirus neutralization IC50” value was > 10 µg/mL.

These binders were tested against SARS-CoV-2 Omicron BA.5 spike pseudovirus in the same assay as above.
Method: as §1
B1 was tested, and the “pseudovirus neutralization IC50” value was > 10 µg/mL.
B2 was tested, and the “pseudovirus neutralization IC50” value was > 10 µg/mL.
With B3 the “pseudovirus neutralization IC50” value was > 10 µg/mL.
With B4 the “pseudovirus neutralization IC50” value was > 10 µg/mL.
In the case of B5, the “pseudovirus neutralization IC50” value is reported as > 10 µg/mL.
For B6, the “pseudovirus neutralization IC50” value was > 10 µg/mL.
In the case of B7, the “pseudovirus neutralization IC50” value is reported as > 10 µg/mL.
For B8, the “pseudovirus neutralization IC50” value was > 10 µg/mL.
B9 was tested, and the “pseudovirus neutralization IC50” value was > 10 µg/mL.
With B10 the “pseudovirus neutralization IC50” value was > 10 µg/mL.
For B11, the “pseudovirus neutralization IC50” value was > 10 µg/mL.
B12 was tested, and the “pseudovirus neutralization IC50” value was > 10 µg/mL.

What follows are binders tested against SARS-CoV-2 Omicron BQ.1.1 spike pseudovirus in the same assay as above.
Method: as §1
B1 was tested, and the “pseudovirus neutralization IC50” value was > 10 µg/mL.
With B2 the “pseudovirus neutralization IC50” value was > 10 µg/mL.
With B3 the “pseudovirus neutralization IC50” value was > 10 µg/mL.
In the case of B4, the “pseudovirus neutralization IC50” value is reported as > 10 µg/mL.
In the case of B5, the “pseudovirus neutralization IC50” value is reported as > 10 µg/mL.
B6 was tested, and the “pseudovirus neutralization IC50” value was > 10 µg/mL.
For B7, the “pseudovirus neutralization IC50” value was > 10 µg/mL.
B8 was tested, and the “pseudovirus neutralization IC50” value was > 10 µg/mL.
With B9 the “pseudovirus neutralization IC50” value was > 10 µg/mL.
B10 was tested, and the “pseudovirus neutralization IC50” value was > 10 µg/mL.
For B11, the “pseudovirus neutralization IC50” value was > 10 µg/mL.
In the case of B12, the “pseudovirus neutralization IC50” value is reported as > 10 µg/mL.

Each binder was assayed against SARS-CoV-2 Omicron XBB spike pseudovirus in the same assay as above.
Method: as §1
With B1 the “pseudovirus neutralization IC50” value was > 10 µg/mL.
With B2 the “pseudovirus neutralization IC50” value was > 10 µg/mL.
B3 was tested, and the “pseudovirus neutralization IC50” value was > 10 µg/mL.
In the case of B4, the “pseudovirus neutralization IC50” value is reported as > 10 µg/mL.
B5 was tested, and the “pseudovirus neutralization IC50” value was > 10 µg/mL.
For B6, the “pseudovirus neutralization IC50” value was > 10 µg/mL.
For B7, the “pseudovirus neutralization IC50” value was > 10 µg/mL.
For B8, the “pseudovirus neutralization IC50” value was > 10 µg/mL.
With B9 the “pseudovirus neutralization IC50” value was > 10 µg/mL.
For B10, the “pseudovirus neutralization IC50” value was > 10 µg/mL.
For B11, the “pseudovirus neutralization IC50” value was > 10 µg/mL.
In the case of B12, the “pseudovirus neutralization IC50” value is reported as > 10 µg/mL.

These binders were tested against SARS-CoV-2 early D614G spike pseudovirus in the same assay as above.
Method: as §1
For B1, the “pseudovirus neutralization IC50” value was > 10 µg/mL.
For B2, the “pseudovirus neutralization IC50” value was 0.0303 µg/mL.
B3 was tested, and the “pseudovirus neutralization IC50” value was > 10 µg/mL.
With B4 the “pseudovirus neutralization IC50” value was > 10 µg/mL.
In the case of B5, the “pseudovirus neutralization IC50” value is reported as > 10 µg/mL.
B6 was tested, and the “pseudovirus neutralization IC50” value was > 10 µg/mL.
B7 was tested, and the “pseudovirus neutralization IC50” value was 2.28 µg/mL.
In the case of B8, the “pseudovirus neutralization IC50” value is reported as 0.0965 µg/mL.
B9 was tested, and the “pseudovirus neutralization IC50” value was > 10 µg/mL.
B10 was tested, and the “pseudovirus neutralization IC50” value was > 10 µg/mL.
In the case of B11, the “pseudovirus neutralization IC50” value is reported as 2.67 µg/mL.
For B12, the “pseudovirus neutralization IC50” value was > 10 µg/mL.
